Pooled drug test results. Numbers come from NIAID ChemDB, via PubChem.

Common to all: enzyme or target tests; species: HIV-1; target: Protease

ICn: concentration for n% inhibition. Blank or dashed fields: not listed here. Neighbouring rows are from separate reports.

| SMILES | read by | measure | result |
|---|---|---|---|
| CC(C)C[C@H](NC(=O)[C@H](Cc1ccccc1)NC(=O)CCCCCCCCCCCCCCC(=O)N[C@@H](CC(N)=O)C(=O)N[C@@H](Cc1ccccc1)C(=O)O)C(=O)N[C@@H](Cc1ccccc1)C(N)=O |  | IC50 | 0.56 µM |
| CC(C)(CCCCCNC(=O)C1CCC1)CN(C[C@@H](O)[C@H](Cc1ccccc1)NC(=O)O[C@H]1CO[C@H]2OCC[C@H]21)S(=O)(=O)c1ccc2c(c1)OCO2 | fluorescence | Ki | <0.001 µM |
| O=c1c(O)c(-c2ccc(O)cc2)oc2cc(OC3O[C@@H](O)[C@H](O)[C@H](O)[C@H]3O)cc(O)c12 | HPLC | IC50 | 146.6 µM |
| CC(C)(CCCCCNC(=O)OC1COCOC1)CN(C[C@@H](O)[C@H](Cc1ccccc1)NC(=O)O[C@H]1CO[C@H]2OCC[C@H]21)S(=O)(=O)c1ccc2c(c1)OCO2 | fluorescence | Ki | <0.001 µM |
| CC(C)C[C@H](NC(=O)[C@@H]1CCCN1C(=O)CCCCCCCCCCCCCCC(=O)N[C@@H](CC(N)=O)C(=O)N[C@@H](Cc1ccccc1)C(=O)O)C(=O)N[C@@H](Cc1ccccc1)C(N)=O |  | IC50 | 5.5 µM |
| CC[C@H](CC[C@@H](C)C1CCCC2C3CC=C4C[C@@H](O)CC[C@]4(C)C3CC[C@@]21C)C(C)C | HPLC | IC50 | >300 µM |
| CCOC(=O)NCCC(C)(C)CN(C[C@@H](O)[C@H](Cc1ccccc1)NC(=O)O[C@H]1CO[C@H]2OCC[C@H]21)S(=O)(=O)c1ccc(N)cc1 | fluorescence | Ki | <0.001 µM |
| CC[C@H](CC[C@@H](C)C1CCCC2C3CC=C4C[C@@H](O[C@@H]5O[C@@H](CO)[C@H](O)[C@@H](O)[C@@H]5C)CC[C@]4(C)C3CC[C@@]21C)C(C)C | HPLC | IC50 | >300 µM |
| CC(C)CC(=O)NCCCCC(C)(C)CN(C[C@@H](O)[C@H](Cc1ccccc1)NC(=O)O[C@H]1CO[C@H]2OCC[C@H]21)S(=O)(=O)c1ccc2c(c1)OCO2 | fluorescence | Ki | <0.001 µM |
| CC(C)C[C@H](NC(=O)[C@@H](NC(=O)CCCCCCCCCCCCCCC(=O)N[C@@H](CC(N)=O)C(=O)N[C@@H](Cc1ccccc1)C(=O)O)C(C)O)C(=O)N1Cc2[nH]c3ccccc3c2CC1C(=O)O |  | IC50 | 6.1 µM |
| Oc1cc(O)cc(/C=C/c2ccc(O)c(O)c2)c1 | FRET | IC50 | 59 µM |
| C[C@H]1[C@H](C)CC[C@]2(C(=O)O)CC[C@]3(C)C(=CC[C@@H]4[C@@]5(C)CC[C@H](O)C(C)(C)[C@@H]5CC[C@]43C)[C@H]12 | HPLC | IC50 | 8.9 µM |
| CC(C)C[C@H](NC(=O)[C@@H](NC(=O)CCCCCCCCCCCCCCC(=O)N[C@@H](CC(N)=O)C(=O)N[C@@H](Cc1ccccc1)C(=O)O)C(C)O)C(=O)N[C@@H](Cc1ccc(C(=O)c2ccccc2)cc1)C(N)=O |  | Ki | 0.495 µM |
| C=C(C)[C@H]1CC[C@]2(C)[C@H]3CC[C@@H]4[C@@]5(C)C[C@H](O)C[C@](C)(C(=O)O)[C@@H]5CC[C@@]4(C)[C@]3(C)CC[C@@H]12 | HPLC | IC50 | 26.5 µM |
| CSCC[C@H](NC(=O)[C@H](CC(N)=O)NC(=O)CCCCCCCCCCCCCCC(=O)N[C@H](C(=O)N[C@@H](CC(C)C)C(=O)N[C@@H](Cc1ccccc1)C(N)=O)C(C)O)C(=O)O |  | IC50 | >5.5 µM |
| CC(C)(CCNC(=S)NC(C)(C)C)CN(C[C@@H](O)[C@H](Cc1ccccc1)NC(=O)O[C@H]1CO[C@H]2OCC[C@H]21)S(=O)(=O)c1ccc2c(c1)OCO2 | fluorescence | Ki | <0.001 µM |
| CC(C)C[C@H](NC(=O)[C@@H](NC(=O)CCCCCCCCCCCCCCC(=O)N[C@@H](CC(N)=O)C(=O)N[C@@H](CC1CCCCC1)C(=O)O)C(C)O)C(=O)N[C@@H](Cc1ccccc1)C(N)=O |  | IC50 | 3.7 µM |
| CC(C)C(=O)NCCCC(C)(C)CN(C[C@@H](O)[C@H](Cc1ccccc1)NC(=O)O[C@H]1CO[C@H]2OCC[C@H]21)S(=O)(=O)c1ccc2c(c1)OCO2 | fluorescence | Ki | <0.001 µM |

The first 2 rows once more:

CC(C)C[C@H](NC(=O)[C@H](Cc1ccccc1)NC(=O)CCCCCCCCCCCCCCC(=O)N[C@@H](CC(N)=O)C(=O)N[C@@H](Cc1ccccc1)C(=O)O)C(=O)N[C@@H](Cc1ccccc1)C(N)=O ; measure: IC50 ; result: 0.56 µM
CC(C)(CCCCCNC(=O)C1CCC1)CN(C[C@@H](O)[C@H](Cc1ccccc1)NC(=O)O[C@H]1CO[C@H]2OCC[C@H]21)S(=O)(=O)c1ccc2c(c1)OCO2 ; read by: fluorescence ; measure: Ki ; result: <0.001 µM